Reference: PMC2833280

System: O=C(O)C[C@@H]1CC[C@@H](C(=O)O)N1
Experiment: purified protein
Conditions: pH 8.0, 25 °C, saturating ATP (2-4 mM), ionic strength 0.15

“CPS (carbapenam synthetase) (Pectobacterium carotovorum subsp. carotovorum; E380D)” and “CPS (carbapenam synthetase) (Pectobacterium carotovorum subsp. carotovorum; E380D/Y345F)” are within 1.5-fold of each other in Km: 360 ± 60 µM for the first, 490 ± 60 µM for the second.

First: CPS (carbapenam synthetase) (Pectobacterium carotovorum subsp. carotovorum; E380Q)
Second: CPS (carbapenam synthetase) (Pectobacterium carotovorum subsp. carotovorum; E380Q/Y345F)
The Km of the first is 12-fold lower: 75 ± 15 µM for the first, 900 ± 200 µM for the second.

With “CPS (carbapenam synthetase) (Pectobacterium carotovorum subsp. carotovorum; Y345F)” the Km was 270 ± 40 µM.

First: CPS (carbapenam synthetase) (Pectobacterium carotovorum subsp. carotovorum; E380D)
Second: CPS (carbapenam synthetase) (Pectobacterium carotovorum subsp. carotovorum; E380D/Y345F)
The kcat of the first is 44-fold higher: 0.26 ± 0.02 s⁻¹ for the first, 0.0059 s⁻¹ for the second.

Compared with “CPS (carbapenam synthetase) (Pectobacterium carotovorum subsp. carotovorum; E380Q)”, “CPS (carbapenam synthetase) (Pectobacterium carotovorum subsp. carotovorum; E380Q/Y345F)” is 1.8-fold lower in kcat: 0.020 ± 0.001 s⁻¹ for the first, 0.011 s⁻¹ for the second.

With “CPS (carbapenam synthetase) (Pectobacterium carotovorum subsp. carotovorum; Y345F)” the kcat was 0.17 ± 0.01 s⁻¹.

Compared with “CPS (carbapenam synthetase) (Pectobacterium carotovorum subsp. carotovorum; E380D)”, “CPS (carbapenam synthetase) (Pectobacterium carotovorum subsp. carotovorum; E380D/Y345F)” is 60-fold lower in kcat/Km: 720 M⁻¹ s⁻¹ for the first, 12 M⁻¹ s⁻¹ for the second.

First: CPS (carbapenam synthetase) (Pectobacterium carotovorum subsp. carotovorum; E380Q)
Second: CPS (carbapenam synthetase) (Pectobacterium carotovorum subsp. carotovorum; E380Q/Y345F)
The kcat/Km of the first is 25-fold higher: 270 M⁻¹ s⁻¹ for the first, 11 M⁻¹ s⁻¹ for the second.

“CPS (carbapenam synthetase) (Pectobacterium carotovorum subsp. carotovorum; Y345F)” showed a kcat/Km of 630 M⁻¹ s⁻¹.
